In patent US20260144796A1, “Compounds and Methods for Improving Health” (Acurx Pharmaceuticals, Inc., priority 2022, published 2026):

System: C. difficile clinical isolates
Experiment: Agar dilution MIC, C. difficile clinical isolates with reduced susceptibility to metronidazole, vancomycin or fidaxomicin
Settings: vancomycin, fidaxomicin

## O=c1[nH]c(NCc2ccc(Cl)c(Cl)c2)nc2ncn(CCN3CCOCC3)c12 [Ibezapolstat, 2-((3,4-dichlorobenzyl)amino)-7-(2-morpholinoethyl)-1,7-dihydro-6H-purin-6-one]
  MIC50 and MIC90, susceptible versus reduced susceptible isolates: did not differ
